PubChem BioAssay AID1259414, Drosophila RNAi Screening Center – 2018

- Aim: 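Fly genes that alter Wolbachia amount inside host cells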 (primary screen)
- Cell system: Drosophila JW18 cells infected with Wolbachia
- Knock-down reagent: long dsRNA against Drosophila genes, 0.25 µg dsRNA per well of a 384-well plate
- Time to read-out: 5 days
- Challenge: cells persistently infected with Wolbachia before knock-down; no added drug
- Detection: 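Automated imaging of bacterial rRNA staining divided by host cell count, reported as plate-normalised robust z-score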
- Scale: Wolbachia per cell robust z: higher = more Wolbachia per host cell than the plate typical
- Hit rule: 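Hit when robust z is 1.5 or more, or -1.5 or less, in at least two of three replicates; excludes dsRNAs with several or no targets, genes not expressed in JW18 and well A1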
The deposit covers about 24,000 reagents; below is a random part of those with a known target gene and a result. Of all reagents, about 1,210 (5%) are marked active. 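Inactive calls also include excluded dsRNAs with several or no targets, genes unexpressed in JW18, and well A1, regardless of score.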 A number with no mark means an inactive call. A plus sign joins genes that one reagent is predicted to hit.

Against MED20 (Mediator complex subunit 20) [DRSC03463], the values are Wolbachia per cell robust z, rep 1 = -2.33; Wolbachia per cell robust z, rep 2 = 0.0532; Wolbachia per cell robust z, rep 3 = 0.0625. mirr (mirror) [DRSC11369] showed Wolbachia per cell robust z, rep 1 = 0.729; Wolbachia per cell robust z, rep 2 = 0.803; Wolbachia per cell robust z, rep 3 = 0.377. With knock-down of mirr (mirror) [DRSC25450] the results were Wolbachia per cell robust z, rep 1 = -1.19; Wolbachia per cell robust z, rep 2 = 0.0786; Wolbachia per cell robust z, rep 3 = 0.279. For CG46025 [DRSC01000] the deposit lists Wolbachia per cell robust z, rep 1 = 1.06; Wolbachia per cell robust z, rep 2 = -2.84; Wolbachia per cell robust z, rep 3 = -0.424. Against CG46025 [DRSC02396], the values are Wolbachia per cell robust z, rep 1 = -0.00422; Wolbachia per cell robust z, rep 2 = 0.299; Wolbachia per cell robust z, rep 3 = -0.669. CG46025 [DRSC03023] showed Wolbachia per cell robust z, rep 1 = 0.128; Wolbachia per cell robust z, rep 2 = 0.133; Wolbachia per cell robust z, rep 3 = -0.564.

For CG46025 [DRSC29424], the entry reads Wolbachia per cell robust z, rep 1 = 0.311; Wolbachia per cell robust z, rep 2 = 0.675; Wolbachia per cell robust z, rep 3 = -2.95. With knock-down of Gycbeta100B (Guanylyl cyclase beta-subunit at 100B) [DRSC14039], the record shows Wolbachia per cell robust z, rep 1 = 1.05; Wolbachia per cell robust z, rep 2 = 0.58; Wolbachia per cell robust z, rep 3 = -0.316. Gycbeta100B (Guanylyl cyclase beta-subunit at 100B) [DRSC14040] gave Wolbachia per cell robust z, rep 1 = -0.0596; Wolbachia per cell robust z, rep 2 = 0.923; Wolbachia per cell robust z, rep 3 = 0.377. Against Gycbeta100B (Guanylyl cyclase beta-subunit at 100B) [DRSC16691], the values are Wolbachia per cell robust z, rep 1 = -0.456; Wolbachia per cell robust z, rep 2 = 0.00824; Wolbachia per cell robust z, rep 3 = 0.461. With knock-down of Gycbeta100B (Guanylyl cyclase beta-subunit at 100B) [DRSC28797] the results were Wolbachia per cell robust z, rep 1 = 0.42; Wolbachia per cell robust z, rep 2 = 0.455; Wolbachia per cell robust z, rep 3 = 0.0782. For CG42559 + CG42560 [DRSC21873] the deposit lists Wolbachia per cell robust z, rep 1 = -1.53; Wolbachia per cell robust z, rep 2 = -0.0538; Wolbachia per cell robust z, rep 3 = -0.975.

CG6813 [DRSC16122] showed Wolbachia per cell robust z, rep 1 = 0.022; Wolbachia per cell robust z, rep 2 = -0.364; Wolbachia per cell robust z, rep 3 = -0.0376. Knock-down of AstC (Allatostatin C) [DRSC02403] resulted in: Wolbachia per cell robust z, rep 1 = -0.468; Wolbachia per cell robust z, rep 2 = -1.17; Wolbachia per cell robust z, rep 3 = -0.609. Depletion of CG14219 [DRSC19576] gave: Wolbachia per cell robust z, rep 1 = 1.2; Wolbachia per cell robust z, rep 2 = 0.583; Wolbachia per cell robust z, rep 3 = 0.743. With knock-down of CG14219 [DRSC26450], the record shows Wolbachia per cell robust z, rep 1 = 0.185; Wolbachia per cell robust z, rep 2 = -0.333; Wolbachia per cell robust z, rep 3 = 0.242.

Records above whose target name begins with M or m (3):
MED20 (Mediator complex subunit 20) [DRSC03463] → Wolbachia per cell robust z, rep 1 = -2.33; Wolbachia per cell robust z, rep 2 = 0.0532; Wolbachia per cell robust z, rep 3 = 0.0625
mirr (mirror) [DRSC11369] → Wolbachia per cell robust z, rep 1 = 0.729; Wolbachia per cell robust z, rep 2 = 0.803; Wolbachia per cell robust z, rep 3 = 0.377
mirr (mirror) [DRSC25450] → Wolbachia per cell robust z, rep 1 = -1.19; Wolbachia per cell robust z, rep 2 = 0.0786; Wolbachia per cell robust z, rep 3 = 0.279
